Source: the supplement of paper PMC3578754
Fold change is the IC50 on the isolate divided by the IC50 on a reference virus; 1 = unchanged, higher = more resistant. Changes are given against the subtype B consensus. No active / inactive call. The values were gathered from many studies (numbered anew) with different assays, which the source does not name. Most viruses are clinical isolates; some are laboratory strains or clones with known resistance changes. Isolates with mixed residues are left out; stretches that were not sequenced show no change. Round top values that many isolates share are read here as limits; other very high values and 0.1 may be limits too.

How the values were obtained:
Assay in all cases: fold change of IC50 against reference virus; higher = more resistant
delavirdine = compound: CC(C)Nc1cccnc1N1CCN(C(=O)c2cc3cc(NS(C)(=O)=O)ccc3[nH]2)CC1 [delavirdine]
Description: (§1)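 Cell-culture drug susceptibility tests of virus bearing the reverse transcriptase of each isolate, gathered from many studies.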

nevirapine = compound: Cc1ccnc2c1NC(=O)c1cccnc1N2C1CC1 [nevirapine]
Description: as §1

zidovudine = compound: Cc1cn([C@H]2C[C@H](N=[N+]=[N-])[C@@H](CO)O2)c(=O)[nH]c1=O [zidovudine]
Description: as §1

didanosine = compound: O=c1[nH]cnc2c1ncn2[C@H]1CC[C@@H](CO)O1 [didanosine]
Description: as §1

stavudine = compound: Cc1cn([C@H]2C=C[C@@H](CO)O2)c(=O)[nH]c1=O [stavudine]
Description: as §1

Test System	fold change of IC50 against reference virus (delavirdine)	fold change of IC50 against reference virus (nevirapine)	fold change of IC50 against reference virus (zidovudine)	fold change of IC50 against reference virus (didanosine)	fold change of IC50 against reference virus (stavudine)
HIV-1 isolate 31 (reverse transcriptase changes: K102Q V106A S162C Y181C K277R, study 1)	83	70			
HIV-1 isolate 70 (reverse transcriptase changes: K102Q V106A S162C K277R, study 1)	25	70			
HIV-1 isolate 158 (reverse transcriptase changes: K102Q K103N S162C K277R, study 1)	76	43			
HIV-1 isolate 161 (reverse transcriptase changes: K102Q S162C G190A K277R, study 1)	0.2	70			
HIV-1 isolate 175 (reverse transcriptase changes: K122E F214L A272P K277R A376T A400T K451R V458L D460N R461K S468P D471N H483Y K512Q S519N E529Q V559I, study 47)	1	1			
HIV-1 isolate 206 (reverse transcriptase changes: K103N K122E F214L A272P K277R A376T A400T K451R V458L D460N R461K S468P D471N H483Y K512Q S519N E529Q V559I, study 47)	30	25			
HIV-1 isolate 207 (reverse transcriptase changes: K102Q S162C F227L K277R, study 1)	0.2	4			
HIV-1 isolate 231 (reverse transcriptase changes: K122E Y181C F214L A272P K277R A376T A400T K451R V458L D460N R461K S468P D471N H483Y K512Q S519N E529Q V559I, study 47)	30	25			
HIV-1 isolate 253 (reverse transcriptase changes: V106A K122E F214L A272P K277R A376T A400T K451R V458L D460N R461K S468P D471N H483Y K512Q S519N E529Q V559I, study 96)	10	40	1.3	0.4	
HIV-1 isolate 462 (reverse transcriptase changes: K102Q V106A S162C F227L K277R, study 1)	6	70	0.5		
HIV-1 isolate 660 (reverse transcriptase changes: K102Q S162C L234I K277R, study 1)	2	0.5	1		
HIV-1 isolate 674 (reverse transcriptase changes: K102Q S162C Y181C K277R, study 1)	83	70	1		
HIV-1 isolate 688 (reverse transcriptase changes: K102Q S162C Y188C K277R, study 1)	5.3	70			
HIV-1 isolate 862 (reverse transcriptase changes: K102Q S162C F227C K277R, study 1)	1	12	0.1		
HIV-1 isolate 880 (reverse transcriptase changes: D123E D177E V245E T286A I293V E300Q P321S M357T S379G T386I K390R A400T K431R V435L, study 29)					1.4
HIV-1 isolate 1127 (reverse transcriptase changes: K101I V106A K122E Y181C F214L F227L A272P K277R A376T A400T K451R V458L D460N R461K S468P D471N H483Y K512Q S519N E529Q V559I, study 96)	1	700	1	0.3	
HIV-1 isolate 1135 (reverse transcriptase changes: K70R D123E S162C T200I R211K, study 84)	1				
HIV-1 isolate 1145 (reverse transcriptase changes: D121Y K122E G196E R211G V245K, study 84)	1				
HIV-1 isolate 1180 (reverse transcriptase changes: V60I K70R K103N I135T D177E F214L, study 84)	9				
HIV-1 isolate 1196 (reverse transcriptase changes: R83K I135V Q174H V245K, study 84)	1				
HIV-1 isolate 1313 (reverse transcriptase changes: K122E Y181C F214L P236L A272P K277R A376T A400T K451R V458L D460N R461K S468P D471N H483Y K512Q S519N E529Q V559I, study 47)	240	2			
HIV-1 isolate 1315 (reverse transcriptase changes: K122E F214L P236L A272P K277R A376T A400T K451R V458L D460N R461K S468P D471N H483Y K512Q S519N E529Q V559I, study 47)	72	0.1			
HIV-1 isolate 1330 (reverse transcriptase changes: K101I V106A K122E F214L F227L A272P K277R A376T A400T K451R V458L D460N R461K S468P D471N H483Y K512Q S519N E529Q V559I, study 96)	≥ 250	700	1	0.5	
HIV-1 isolate 1350 (reverse transcriptase changes: L100I K102Q S162C K277R, study 1)	100	2			
HIV-1 isolate 1436 (reverse transcriptase changes: K49R I135V S162C Y181C T200A R211K, study 84)	18				
HIV-1 isolate 1486 (reverse transcriptase changes: K102Q S162C K277R, study 1)	1	1	1		
HIV-1 isolate 1528 (reverse transcriptase changes: V106A K122E F214L F227L A272P K277R A376T A400T K451R V458L D460N R461K S468P D471N H483Y K512Q S519N E529Q V559I, study 96)	25	700	1.6	1	
HIV-1 isolate 1562 (reverse transcriptase changes: K102Q S162C P236L K277R, study 1)	83	3			
HIV-1 isolate 1573 (reverse transcriptase changes: K70R K103N D123E S162C R211K, study 84)	12				
